The list shows a part of the results, in another mix than the full data. Calls of active or inactive are those of the source. Cut-off read from the data, not from the text of the source: active = growth rescue above about 28% (passing the limit was not always enough); inconclusive = no clear call, values can overlap the other calls.
Test: rescue of yeast from PfHsp40 toxicity, primary screen, S. cerevisiae, ATP luminescence (AID 504582);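 note: yeast W303a lacking pdr1 and pdr3 grown in galactose medium; growth measured after three days at 30 °C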
Settings: S. cerevisiae expressing PfHsp40, growth rescue, at 12.5 µM, active compounds read high

Compound	growth rescue
CN1CCC(Nc2ccc(F)c(Cl)c2)CC1	inactive: -1.45%
CCOc1ncccc1C(=O)NCC1(N2CCOCC2)CCCCC1	inactive: -0.672%
CCCOc1ccc(C(=O)NCC2(N(C)C)CCCCC2)cc1	inactive: -0.748%
O=C(O)C1(Nc2ccccc2)CCN(Cc2ccccc2)CC1	inactive: 0.056%
CC(C)(C)OC(=O)N1CCC(Nc2ccccc2)CC1	inactive: -0.022%
CCC(CO)(C(=O)OC1CN2CCC1CC2)c1ccccc1 (centres undefined)	inactive: -0.876%
COc1cccc(C(=O)N(c2cc(C)cc(C)c2)C2CCN(C(=O)OC(C)(C)C)CC2)c1	inactive: 0.63%
COc1cc(OC)cc(C(=O)NCC2(N3CCOCC3)CCCCC2)c1	inactive: -1.48%
CN1CCC(Nc2ccc(Cl)cc2)CC1	inactive: -0.947%
COc1cc(OC)cc(C(=O)NCC2(N3CCCCC3)CCCCC2)c1	inactive: 0.343%
CC(=O)N(c1ccccc1)C1CCNCC1	inactive: -1.92%
Cc1ccc(NC2(C#N)CCN(Cc3ccccc3)CC2)cc1	inactive: -0.172%
Fc1ccccc1NC1CCN(Cc2ccccc2)CC1	inactive: -2.07%
Cc1ccc(C(=O)NCC2(N3CCCCC3)CCCCC2)o1	inactive: 0.138%
CCN1CCC(Nc2cccc(F)c2)CC1	inactive: 0.426%
Cc1ccccc1NC1(C#N)CCN(Cc2ccccc2)CC1	inactive: 0.289%
Cn1c(=O)[nH]cc(N(CCCl)CCCl)c1=O	inactive: -0.285%
CN(C)c1ccc(C(=O)NCC2(N3CCCCC3)CCCCC2)cc1	inactive: -0.055%
O=C(NCC1(N2CCCCC2)CCCCC1)c1ccco1	inactive: -0.96%
CC(C)(C)OC(=O)N1CCC(N(C(=O)c2ccccc2)c2ccc(Cl)cc2)CC1	inactive: 0.638%
N#Cc1ccc(C(=O)NCC2(N3CCCCC3)CCCCC2)cc1	inactive: -0.513%
CCCN1CCC(Nc2cc(OC)cc(OC)c2)CC1	inactive: 0.668%
Cc1cc(N(CCCl)CCCl)ccc1C=O	inactive: -1.46%
c1ccc(CN2CCC(Nc3ccccc3)CC2)cc1	inactive: -0.707%
CN(C)C1(CNC(=O)c2cccc(C#N)c2)CCCCC1	inactive: -0.846%

Compound	growth rescue
O=C(NCC1(N2CCOCC2)CCCCC1)c1cc(Br)ccc1Cl	inactive: 0.066%
COc1cc(C(=O)NCC2(N3CCOCC3)CCCCC2)cc(OC)c1C	inactive: -1.38%
COc1ccc(C(=O)NCC2(N3CCOCC3)CCCCC2)cc1OC	inactive: 0.516%
N/C(=N\O)c1c(N)no[n+]1[O-]	inactive: 0.62%
CCOC(=O)N1CCC(Nc2ccc(C)cc2)CC1	inactive: -2.02%
O=C(OC1CN2CCC1CC2)C1c2ccccc2C=Cc2ccccc21 (centres undefined)	inactive: 0.0135%
CN(C)c1cccc(C(=O)NCC2(N3CCCCC3)CCCCC2)c1	inactive: -0.09%
COc1ccc(CN(CCCl)CCCl)cc1Cl	inactive: -0.677%
CC(C)c1ccc(NC2CCN(C(=O)OC(C)(C)C)CC2)cc1	inactive: 0.49%
O=C(NCC1(N2CCOCC2)CCCCC1)c1cc(F)c(F)cc1Cl	inactive: -1.43%
COc1cc(OC)c(C(=O)NCC2(N(C)C)CCCCC2)cc1OC	inactive: -1.21%
O=C(NCC1(N2CCCCC2)CCCCC1)c1cncc(Br)c1	inactive: -0.185%
CN1CCC(Nc2cccc(F)c2)CC1	inactive: 0.232%
CCCOc1ccc(C(=O)NCC2(N(C)C)CCCCC2)cc1OC	inactive: -0.733%
O=C(NCC1(N2CCCCC2)CCCCC1)c1ccc(OC(F)F)cc1	inactive: -0.789%
CSc1ccc(C(=O)NCC2(N3CCOCC3)CCCCC2)cc1	inactive: -0.0255%
O=C(NCC1(N2CCCCC2)CCCCC1)c1cccc([N+](=O)[O-])c1	inactive: -0.0435%
N#CC1(Nc2ccccc2)CCN(CCc2ccccc2)CC1	inactive: 0.0265%
CCN1CCC(Nc2ccc(Cl)cc2)CC1	inactive: -1.28%
O=C(NCC1(N2CCCCC2)CCCCC1)c1cccc(C(F)(F)F)c1	inactive: -0.216%
COc1ccc(NC2CCN(C(=O)OC(C)(C)C)CC2)cc1	inactive: -0.982%
CC(C)c1ccc(C(=O)NCC2(N3CCOCC3)CCCCC2)cc1	inactive: -1.16%
CN1CCN(CCOC(=O)C(O)(c2ccccc2)c2ccccc2)CC1	inactive: -2.12%
O=C(NCC1(N2CCOCC2)CCCCC1)c1cc(=O)[nH]c2ccccc12	inactive: 0.285%
COc1cc(C(=O)NCC2(N3CCCCC3)CCCCC2)ccc1OC(F)F	inactive: 0.84%

Compound	growth rescue
CCOc1ccc(C)cc1CN(CCCl)CCCl	inactive: -0.623%
O=C1CCN(Cc2ccccc2)CC1	inactive: 0.279%
CCOC(=O)N1CCC(Nc2ccc(F)cc2)CC1	inactive: -1.42%
COc1ccc(NC2CCN(CCc3ccccc3)CC2)c(OC)c1	inactive: 0.917%
O=C(NCC1(N2CCCCC2)CCCCC1)c1ccc(F)cc1	inactive: -0.836%
CCCCOc1ccc(C(=O)NCC2(N3CCOCC3)CCCCC2)cc1	inactive: -2.17%
O=P1(N(CCCl)CCCl)SCCCS1	inactive: 1.79%
COc1cc(C(=O)NCC2(N(C)C)CCCCC2)ccc1OC(F)F	inactive: -0.737%
CCOC(=O)N1CCC(Nc2cccc(C)c2)CC1	inactive: -0.419%
O=C(NCC1(N2CCCCC2)CCCCC1)c1cccs1	inactive: -0.031%
O=C(NCC1(N2CCCCC2)CCCCC1)c1ccc(=O)[nH]c1	inactive: 0.311%
COc1ccc(C(=O)NCC2(N3CCCCC3)CCCCC2)c(OC)c1OC	inactive: -1.48%
CC(C)(C)OC(=O)N1CCC(N(C(=O)c2ccccc2)c2ccc(F)cc2)CC1	inactive: -0.339%
COc1ccc(C(=O)NCC2(N3CCCCC3)CCCCC2)cc1	inactive: -0.571%
Cc1cccc(NC2(C#N)CCN(Cc3ccccc3)CC2)c1	inactive: -1.17%
CSc1ccccc1C(=O)NCC1(N2CCCCC2)CCCCC1	inactive: -0.142%
O=C(NCC1(N2CCOCC2)CCCCC1)c1cc2ccccc2o1	inactive: -0.571%
Cc1cc(C)cc(N(C(=O)c2ccccc2)C2CCN(C(=O)OC(C)(C)C)CC2)c1	inactive: 2.27%
O=C(NCC1(N2CCCCC2)CCCCC1)c1ccc(Cl)nc1	inactive: -0.255%
CCOC(=O)N1CCC(Nc2ccc(OC)cc2)CC1	inactive: -0.554%
COc1ccc(Cl)cc1C(=O)NCC1(N2CCOCC2)CCCCC1	inactive: -0.147%
O=C(OC1CN2CCC1CC2)C1c2ccccc2Oc2ccccc21 (centres undefined)	inactive: -1.42%
N#CC1(Nc2ccccc2)CCN(Cc2ccccc2)CC1	inactive: 1.68%
O=C(NCC1(N2CCCCC2)CCCCC1)c1ccc(Cl)s1	inactive: -0.513%

Source: PubChem BioAssay AID504582 (Broad Institute, 2011)
